Measured values reported in PMC10901353, “Identification of a potent and selective LAPTc inhibitor by RapidFire-Mass Spectrometry, with antichagasic activity” (PLOS Neglected Tropical Diseases, 2024).
Where “and” joins values, the source holds several entries; their conditions need not be identical. Equal values may be shown once.

System: intracellular T. cruzi amastigotes
Assay: T. cruzi intracellular assay (high-content imaging, infected Vero cells)
Format: cell-based, Trypanosoma cruzi
Details: individual replicates
Experimental: T. cruzi parasite, TcI strain Silvio X10/7 subclone A1 [34] was maintained in culture as previously described. Parasites were maintained as amastigotes by passaging on a weekly basis in Vero cells. Culture maintenance infections were carried out at an MOI (multiplicity of infection) of 1.5.
This assay was performed as described with the only modification that treatment was 96 h instead of 72 h. Briefly, Vero cells were infected overnight with tissue culture derived T. cruzi trypomastigotes in T225 tissue culture flasks (MOI 5). Any remaining free trypomastigotes were washed away with serum free MEM and the infected Vero cells were harvested by trypsinisation. Compounds (250 nL in DMSO) were dispensed using LabCyte ECHO (Beckman Coulter Life Sciences, USA) into each well of Corning black flat bottomed 384-well plates (Corning, USA). […] The infected Vero cells were then plated into the plates containing the compounds, at 4,000 cells per well in MEM media with 1% FCS. After 96 h incubation at 37°C in presence of 5% CO2, the plates were fixed with 4% formaldehyde for 20 min at room temperature and stained with 5 μg/mL Hoechst 33342. The plates were imaged on a Perkin Elmer Operetta high-content imaging system using a 20× objective. Images were analyzed using the Columbus system (Perkin Elmer). The algorithm first identified the Vero nuclei followed by demarcation of the cytoplasm and identification of intracellular amastigotes. This algorithm reported percent infected Vero cell and total number of Vero cells. All potency determinations were carried out in at least three independent replicates and are reported as pEC50 +/- standard deviation. pEC50 = -log(EC50[M]).

Q: How did the “Hill slope (T. cruzi)” value turn out when `c1ccc(Cc2ccc(OCCn3ccnc3)cc2)cc1` [Compound 13] was run?
A: Its value is 1.6 and 3.6 and 11.5 and 7.5.

Q: For `CCCS(=O)(=O)c1ccc(NS(=O)(=O)c2sc3ccc(Cl)cc3c2C)cc1` [Compound 24], which “Hill slope (T. cruzi)” value is on record?
A: Its value is 2.6 and 1.1 and 4.3 and 0.571.

Q: Which “Hill slope (T. cruzi)” value does the source give for `COc1ccc(CC(=O)Nc2nc(-c3ccccn3)cs2)c(OC)c1` [Compound 12] here?
A: The value was 2.9 and 2.8 and 1.6 and 1.8.

Q: `Nc1[nH]cnc1-c1nc(-c2ccccc2)cs1` [Compound 7] was tested. Which “Hill slope (T. cruzi)” value did it give?
A: The value was 0.751 and 0.663.

Q: `COc1ccc2oc(C(=O)Nc3nc(-c4ccccn4)cs3)c(C)c2c1` [Compound 4] was tested. Which “Hill slope (T. cruzi)” value did it give?
A: The value was 3.0 and 10.6 and 7.6 and 3.3.
